Assay results: US8048862B2, “Macrocyclic inhibitors of hepatitis C virus replication” (priority 2008, dated 2011)
The structures given here were assigned with low confidence; some may be wrong.

Protein sequences, listed by entry. Tags and fused reporters are not part of them. Residues count along the entry.
UniProt P27958, 1027-1657 limits assumed: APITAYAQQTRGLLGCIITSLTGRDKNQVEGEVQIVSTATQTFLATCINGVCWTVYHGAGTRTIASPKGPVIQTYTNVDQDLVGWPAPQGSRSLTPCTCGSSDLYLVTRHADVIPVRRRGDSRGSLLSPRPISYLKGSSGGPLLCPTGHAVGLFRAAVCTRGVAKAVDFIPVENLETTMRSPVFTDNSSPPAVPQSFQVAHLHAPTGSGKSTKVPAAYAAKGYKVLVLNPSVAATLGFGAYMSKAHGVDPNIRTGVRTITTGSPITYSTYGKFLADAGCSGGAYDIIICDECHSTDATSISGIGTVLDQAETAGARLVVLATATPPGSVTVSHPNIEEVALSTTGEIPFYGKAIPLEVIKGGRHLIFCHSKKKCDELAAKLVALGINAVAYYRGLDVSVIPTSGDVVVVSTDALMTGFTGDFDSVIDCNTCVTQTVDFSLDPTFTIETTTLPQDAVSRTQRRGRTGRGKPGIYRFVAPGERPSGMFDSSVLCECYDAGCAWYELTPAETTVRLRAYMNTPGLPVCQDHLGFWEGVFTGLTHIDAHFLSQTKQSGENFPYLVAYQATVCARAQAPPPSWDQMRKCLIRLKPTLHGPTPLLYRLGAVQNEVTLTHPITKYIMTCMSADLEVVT
UniProt P27958, 1658-1711 partner limits assumed: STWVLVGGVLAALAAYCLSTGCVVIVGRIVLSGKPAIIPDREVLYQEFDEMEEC

Columns and labels:
hepatitis C replicon = hepatitis C replicon EC50; format: cell-based, hepatitis C virus; settings: read-out: EC50 nM, Table 2
NS3/NS4 complexes = NS3/NS4 complexes (Hepatitis C virus genotype 1a, UniProt P27958); test: NS3/NS4 inhibition activity (IC50); format: biochemical; settings: read-out: IC50 nM, Table 2
Text: NS3-NS4 inhibition activity can be determined using known assay methods. For example, NS3/NS4 complexes may be formed and inhibitory concentrations of test compounds determined as described in U.S. Patent Application Publication Number 2007/0054842 paragraph numbers 1497-1509, which is incorporated herein by reference in its entirety. Similarly, hepatitis C replicon EC50 may be determined using known assay methods such as described in U.S. Patent Application Publication Number 2007/0054842 paragraph numbers 1510-1515. Assays may be conducted at ambient temperature (23° C.) in assay buffer containing 50 mM Tris-HCl, pH 7.5, 15% glycerol, 0.6 mM Lauryldimethylamine Oxide (LDAO), 25 μM NS4A peptide, and 10 mM Dithiothreitol (DTT).

COc1ccc2c(O[C@@H]3C[C@H]4C(=O)N[C@]5(C(=O)NS(=O)(=O)C6CC6)C[C@H]5/C=C\CCCCC[C@H](Nc5cccc(C#N)c5)C(=O)N4C3)cc(-c3nc(C(C)C)cs3)nc2c1C
EC50 (hepatitis C replicon): < 10 nM | IC50 (NS3/NS4 complexes): < 10 nM
